Compound potency records, mixed from different reports. Data source: NIAID ChemDB in PubChem.

All rows: enzyme or target tests

Blank or dashed fields: not listed here. Percent inhibition refers to the dose given; in toxicity tests it is the harm to the cells. Lines come from different laboratories, so protocols vary. Fold resistance has wild type as its base. ICn: concentration for n% inhibition. a–b is a range or a potency band.

compound	target	read-out	species	tested at	mutations	strain	read by	value
Nc1ccn([C@@H]2CS[C@H](COP(=O)(O)OP(=O)(O)OP(=O)(O)O)O2)c(=O)n1	Reverse transcriptase	fold resistance	HIV		RT-Q151M K103N		radiometric	0.45
Cc1ccc(-c2cncc(N3CCN(c4ccncc4)CC3)n2)cc1	UL97 kinase	inhibition	Cytomegalovirus	1 µM				<50%
COc1ccc(CNC(=O)Nc2cscc2-c2nc(C(=O)O)c(O)c(=O)[nH]2)c(OC)c1	HCV polymerase	IC50	Hepatitis C virus					<25 µM
CC(=O)c1ccc(N2CCN(c3cncc(-c4cccc(F)c4)n3)CC2)cc1	UL97 kinase	inhibition	Cytomegalovirus	10 µM				>15%
O=C(O)CCN1C(=O)C(=Cc2ccc(-c3ccc(Cl)cc3)o2)SC1=S	NS5 polymerase	IC50	Bovine viral diarrhea virus					≤1 µM
CC(NC(=O)Nc1cscc1-c1nc(C(=O)O)c(O)c(=O)[nH]1)c1ccoc1	HCV polymerase	IC50	Hepatitis C virus					<25 µM
Oc1ccc(CN[C@@H]2[C@H](O)[C@@H](O)[C@H](O)[C@@H]3O[C@H]23)cc1	Amyloglucosidase	inhibition	Aspergillus niger	100 µM				16%
O=C(O)c1cnn2c(C3CCCCC3)c(-c3ccc(OCc4ccccc4)c(F)c3)cnc12	RNA-dependent RNA polymerase	IC50	Hepatitis C virus					<1 µM
O=C(OC1OC2COC(=O)c3cc(Oc4c(C(=O)OC5C(O)OC6COC(=O)c7cc(O)c(O)c(O)c7-c7c(cc(O)c(O)c7O)C(=O)OC6C5OC(=O)c5cc(O)c(O)c(O)c5)cc(O)c(O)c4O)c(O)c(O)c3-c3c(cc(O)c(O)c3O)C(=O)OC2C(OC(=O)c2cc(O)c(O)c(O)c2)C1O)c1cc(O)c(O)c(O)c1	DNA polymerase	inhibition	Epstein-Barr virus	80 µg/mL				42.5%
CC(=O)c1ccc(-c2cncc(N3CCN(c4cccc(Cl)c4)CC3)n2)cc1	UL97 kinase	IC50	Cytomegalovirus					<10 µM
COc1ccccc1CC1CCc2nc(N)nc(N)c2C1	Dihydrofolate reductase	IC50	Cryptosporidium parvum			TYPE 1		0.18 µM
O=C(COc1ccccc1)Nc1ccsc1-c1nc(C(=O)O)c(O)c(=O)[nH]1	HCV polymerase	IC50	Hepatitis C virus					<25 µM
CCN(CC)C(=O)c1c(OC)cccc1-c1ccc(C=C2SC(=S)N(c3ccc(C(=O)O)cc3)C2=O)o1	NS5 polymerase	IC50	Bovine viral diarrhea virus					≤1 µM
O[C@@H]1[C@@H](O)[C@@H](NCc2ccc(C(F)(F)F)cc2)[C@@H]2O[C@@H]2[C@H]1O	Amyloglucosidase	inhibition	Aspergillus niger	100 µM				38%
CN(Cc1ccc2nc(N)nc(N)c2n1)c1ccc(Cl)cc1	Dihydrofolate reductase	IC50	Cryptosporidium parvum			TYPE 1		9.1 µM
O=C(O)CCN1C(=O)C(=Cc2ccc(-c3cc4ccccc4c4ccccc34)o2)SC1=S	NS5 polymerase	IC50	Bovine viral diarrhea virus					≤1 µM
COc1cccc(Oc2ccc(-c3nc4cc(C(=O)O)[nH]n4c(=O)c3C3CCCCC3)cc2)c1	RNA-dependent RNA polymerase	IC50	Hepatitis C virus					<1 µM
Clc1cc(CN2CCCNCCNCCCNCC2)cc(Cl)n1	CXCR4	fold resistance			CXCR4-H281A			6.6
CC(C)(C)c1cccc(Oc2cccc(-c3ccc(C=C4SC(=S)N(CC(=O)O)C4=O)o3)c2)c1	NS5 polymerase	IC50	Bovine viral diarrhea virus					≤1 µM
FC(F)(F)Oc1ccc(Oc2ccc(-c3cnc4c(-c5nn[nH]n5)cnn4c3C3CCCCC3)cc2)cc1	RNA-dependent RNA polymerase	IC50	Hepatitis C virus					1–10 µM
C/C(=N\NC(=O)NNC(=O)Nc1ccccc1Cl)c1ccccn1	Ribonucleotide reductase	IC50	Herpes simplex virus 1					>5 µM
Cc1ccccc1CNC(=O)Nc1ccsc1-c1nc(C(=O)O)c(O)c(=O)[nH]1	HCV polymerase	IC50	Hepatitis C virus					<25 µM
COc1cccc(NC(=S)NNC(=S)N/N=C(\C)c2ccccn2)c1	Ribonucleotide reductase	IC50	Herpes simplex virus 1					>5 µM
O=C(O)c1cc2nc(-c3ccc(OCc4ccccc4)cc3)c(C3CCCCC3)c(=O)n2[nH]1	RNA-dependent RNA polymerase	IC50	Hepatitis C virus					1–10 µM
O=C(O)c1nc(-c2sccc2NS(=O)(=O)c2ccc3ccccc3c2)[nH]c(=O)c1O	HCV polymerase	IC50	Hepatitis C virus					<25 µM
COc1ccc(OC)c(CC2CCc3nc(N)nc(N)c3C2)c1	Dihydrofolate reductase	IC50	Cryptosporidium parvum			TYPE 2		0.33 µM
CCOC(=O)NC(=S)NNC(=S)N/N=C(\C)c1ccccn1	Ribonucleotide reductase	IC50	Herpes simplex virus 1					>5 µM
Cc1c(Cl)cccc1S(=O)(=O)NC(=O)Nc1cscc1-c1nc(C(=O)O)c(O)c(=O)[nH]1	HCV polymerase	IC50	Hepatitis C virus					<25 µM
O=C1O[C@H]2C(O)O[C@@H]3COC(=O)c4cc(O)c(O)c(O)c4-c4c(cc(c(O)c4O)Oc4c(cc(O)c(O)c4O)C(=O)O[C@@H]4[C@@H](OC(=O)c5cc(O)c(O)c(O)c5)[C@@H]5OC(=O)c6cc(O)c(O)c(O)c6-c6c(cc7c(c6O)OC6C(O7)C1=CC(=O)C6(O)O)C(=O)OC[C@H]5O[C@H]4O)C(=O)O[C@H]3[C@@H]2OC(=O)c1cc(O)c(O)c(O)c1	DNA polymerase	inhibition	Epstein-Barr virus	2.5 µg/mL				37.2%
COc1ccc(OC)c(-c2cncc(N3CCN(c4ccc(F)cc4)CC3)n2)c1	UL97 kinase	inhibition	Cytomegalovirus	10 µM				>15%
O=C(O)c1ccc(N2C(=O)C(=Cc3ccc(-c4cccc(Cl)c4Cl)o3)SC2=S)cc1	NS5 polymerase	IC50	Bovine viral diarrhea virus					≤1 µM
CCCCCCCCCCCCC/C=C/[C@@H](O)[C@H](CO[C@@H]1O[C@H](CO)[C@H](O)[C@H](OS(=O)(=O)O)[C@H]1O)NC(=O)CCCCCCCCCCCCCCCCCCCCCCC	Sialidase	inhibition	Influenza A virus	200 µM		Influenza A/Yamanashi/2/77 (H3N2)		94.1%
N#Cc1cccc(C(=O)Nc2cccc(-c3nc(C(=O)O)c(O)c(=O)[nH]3)c2)c1	HCV polymerase	IC50	Hepatitis C virus					<100 µM
NNC(=O)c1ccncc1	Alpha-ketoglutarate dehydrogenase	inhibition	Mycobacterium tuberculosis	1000 µM		H37Rv		0%
Fc1ccc(N2CCN(c3cncc(-c4ccc(F)c(Cl)c4)n3)CC2)c(F)c1	UL97 kinase	IC50	Cytomegalovirus					<100 µM
COC(=O)c1cccc(COc2ccc(-c3cnc4c(-c5nn[nH]n5)cnn4c3C3CCCCC3)cc2)c1	RNA-dependent RNA polymerase	IC50	Hepatitis C virus					<1 µM
COc1cccc(-c2cncc(N3CCN(c4ccncc4)CC3)n2)c1	UL97 kinase	IC50	Cytomegalovirus					<10 µM
Cc1cccc(NC(=O)Nc2cccc(-c3nc(C(=O)O)c(O)c(=O)[nH]3)c2)c1	HCV polymerase	IC50	Hepatitis C virus					<100 µM
CN(Cc1ccc2nc(N)nc(N)c2n1)c1cccc(Cl)c1	Dihydrofolate reductase	IC50	Cryptosporidium parvum			TYPE 2		0.024 µM
O=C(O)c1cc2nc(-c3ccc(Cl)cc3Cl)cc(-c3ccccc3OCc3ccccc3)n2n1	RNA-dependent RNA polymerase	IC50	Hepatitis C virus					1–10 µM
O=C(c1ccco1)N1CCN(c2cncc(-c3cccc(CO)c3)n2)CC1	UL97 kinase	inhibition	Cytomegalovirus	10 µM				>15%
Cc1ccccc1CC1CCc2nc(N)nc(N)c2C1	Dihydrofolate reductase	IC50	Cryptosporidium parvum			TYPE 2		0.15 µM
O[C@@H]1[C@@H](O)[C@@H](NCc2ccccc2)[C@H]2O[C@H]2[C@H]1O	Beta-D-xylosidase	inhibition	Aspergillus niger	100 µM				21%
CN(C)CCNC(=O)c1cc2nccc(-c3ccc(-c4ccccc4)cc3)n2n1	RNA-dependent RNA polymerase	IC50	Hepatitis C virus					>10 µM
C/C(=N\NC(=S)NNC(=S)Nc1ccc(Cl)cc1)c1ccccn1	Ribonucleotide reductase	IC50	Herpes simplex virus 1					<5 µM
O[C@@H]1[C@@H](O)[C@@H](NCc2ccc(C(F)(F)F)cc2)[C@H]2O[C@H]2[C@H]1O	Amyloglucosidase	inhibition	Aspergillus niger	100 µM				16%
O=C(Cc1ccccc1Cl)Nc1ccsc1-c1nc(C(=O)O)c(O)c(=O)[nH]1	HCV polymerase	IC50	Hepatitis C virus					<25 µM

For reference, 4 entries again:

compound | target | read-out | species | tested at | mutations | strain | read by | value
Cc1ccccc1CC1CCc2nc(N)nc(N)c2C1 | Dihydrofolate reductase | IC50 | Cryptosporidium parvum |  |  | TYPE 2 |  | 0.15 µM
Cc1ccccc1CNC(=O)Nc1ccsc1-c1nc(C(=O)O)c(O)c(=O)[nH]1 | HCV polymerase | IC50 | Hepatitis C virus |  |  |  |  | <25 µM
O=C(O)c1cc2nc(-c3ccc(Cl)cc3Cl)cc(-c3ccccc3OCc3ccccc3)n2n1 | RNA-dependent RNA polymerase | IC50 | Hepatitis C virus |  |  |  |  | 1–10 µM
C/C(=N\NC(=S)NNC(=S)Nc1ccc(Cl)cc1)c1ccccn1 | Ribonucleotide reductase | IC50 | Herpes simplex virus 1 |  |  |  |  | <5 µM